In paper PMC2829070 (PLoS Pathogens, 2010):

Molecular target: NA of HN30408 clone7 (A/Hanoi/30408/05, H5N1, oseltamivir-sensitive) (Influenza A virus, UniProt Q3C1C4)
Assay: NA activity inhibition assay (MUNANA)

Compound `CC(=O)N[C@H]1[C@H]([C@H](O)[C@H](O)CO)OC(C(=O)O)=C[C@@H]1N=C(N)N` [Zanamivir] has an IC50 of 0.72 nM.
